Taken from: PubChem BioAssay AID624099 (ICCB-Longwood, 2012)
The whole screen tested about 21,000 reagents; below is a part drawn at random. Over the whole deposit, 497 (2.4%) were called active. 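Higher z means weaker E2 silencing; only reporter increases were scored, and knock-downs that hurt cell survival may mask genuine repressor factors.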 Reagents against one gene are numbered here.

Purpose: 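Human genes that papillomavirus E2 requires to repress the HPV18 LCR promoter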 (primary screen)
System: human C33A cervical carcinoma cells (HPV-negative) stably expressing BPV1 E2 and an HPV18 LCR luciferase reporter
Knock-down reagent: siRNA pool against human genes, 40 nM
Duration: 72 h
Detection: 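HPV18 LCR reporter light per well, converted to plate-wise z-scores that exclude control wells, and averaged over triplicate plates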
Scale: mean z-score and z-score: higher = stronger reporter signal, weaker E2 silencing
Call rule: 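Hit if mean z-score reaches 2 and two or more of three replicate z-scores also reach 2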

PCDHA12 → mean z-score = -0.86; z-score, replicate A = -0.92; z-score, replicate B = -0.97; z-score, replicate C = -0.68; Call = inactive
AMD1 → mean z-score = -1.31; z-score, replicate A = -1.43; z-score, replicate B = -1.38; z-score, replicate C = -1.13; Call = inactive
ZNF781 → mean z-score = 0.61; z-score, replicate A = 0.71; z-score, replicate B = 0.65; z-score, replicate C = 0.46; Call = inactive
HYOU1 → mean z-score = -0.83; z-score, replicate A = -0.46; z-score, replicate B = -1.25; z-score, replicate C = -0.78; Call = inactive
CPNE5 → mean z-score = -1.03; z-score, replicate A = -1.09; z-score, replicate B = -0.91; z-score, replicate C = -1.09; Call = inactive
USP4 → mean z-score = 0.94; z-score, replicate A = 0.83; z-score, replicate B = 0.95; z-score, replicate C = 1.05; Call = inactive
TCERG1L → mean z-score = 0.44; z-score, replicate A = 0.04; z-score, replicate B = 0.45; z-score, replicate C = 0.84; Call = inactive
PTPN14 → mean z-score = -0.93; z-score, replicate A = -0.88; z-score, replicate B = -1.1; z-score, replicate C = -0.81; Call = inactive
OR2H2 → mean z-score = 0.08; z-score, replicate A = 0.08; z-score, replicate B = 0; z-score, replicate C = 0.17; Call = inactive
ZDHHC15 → mean z-score = -0.94; z-score, replicate A = -0.8; z-score, replicate B = -0.94; z-score, replicate C = -1.07; Call = inactive
HRH1 → mean z-score = -0.18; z-score, replicate A = 0.19; z-score, replicate B = -0.1; z-score, replicate C = -0.63; Call = inactive
OR5P3 → mean z-score = -0.91; z-score, replicate A = -0.64; z-score, replicate B = -0.95; z-score, replicate C = -1.12; Call = inactive
GNB1L → mean z-score = 1.34; z-score, replicate A = 1.39; z-score, replicate B = 1.1; z-score, replicate C = 1.53; Call = inactive
DNA2 → mean z-score = -1.22; z-score, replicate A = -1.41; z-score, replicate B = -1.1; z-score, replicate C = -1.15; Call = inactive
TMEM126B → mean z-score = -0.27; z-score, replicate A = -0.37; z-score, replicate B = -0.37; z-score, replicate C = -0.05; Call = inactive
RCL1 → mean z-score = -0.43; z-score, replicate A = -0.25; z-score, replicate B = -0.39; z-score, replicate C = -0.64; Call = inactive
CXCL1 → mean z-score = -0.08; z-score, replicate A = 0.03; z-score, replicate B = -0.09; z-score, replicate C = -0.2; Call = inactive
RB1CC1 → mean z-score = 1.44; z-score, replicate A = 1.73; z-score, replicate B = 1.26; z-score, replicate C = 1.34; Call = inactive
HERC2P8 → mean z-score = -0.43; z-score, replicate A = -0.09; z-score, replicate B = -0.42; z-score, replicate C = -0.78; Call = inactive
TOX2 → mean z-score = -1.25; z-score, replicate A = -1.48; z-score, replicate B = -1.02; z-score, replicate C = -1.24; Call = inactive
PRSS30P → mean z-score = 0.73; z-score, replicate A = 0.57; z-score, replicate B = 1.08; z-score, replicate C = 0.52; Call = inactive
GNG3 → mean z-score = 1.54; z-score, replicate A = 1.1; z-score, replicate B = 1.59; z-score, replicate C = 1.94; Call = inactive
ELF5 → mean z-score = -0.51; z-score, replicate A = -0.02; z-score, replicate B = -0.8; z-score, replicate C = -0.72; Call = inactive
LOC401101 (retired record) → mean z-score = -2.15; z-score, replicate A = -1.99; z-score, replicate B = -2.42; z-score, replicate C = -2.02; Call = inactive
TIA1 → mean z-score = 0.72; z-score, replicate A = 0.71; z-score, replicate B = 0.96; z-score, replicate C = 0.49; Call = inactive
MTMR3 #1 → mean z-score = 0.66; z-score, replicate A = 0.75; z-score, replicate B = 0.72; z-score, replicate C = 0.5; Call = inactive
MTMR3 #2 → mean z-score = -0.14; z-score, replicate A = 0; z-score, replicate B = -0.32; z-score, replicate C = -0.1; Call = inactive

A portion from the list above:
CPNE5 → mean z-score = -1.03; z-score, replicate A = -1.09; z-score, replicate B = -0.91; z-score, replicate C = -1.09; Call = inactive
USP4 → mean z-score = 0.94; z-score, replicate A = 0.83; z-score, replicate B = 0.95; z-score, replicate C = 1.05; Call = inactive
TCERG1L → mean z-score = 0.44; z-score, replicate A = 0.04; z-score, replicate B = 0.45; z-score, replicate C = 0.84; Call = inactive
PTPN14 → mean z-score = -0.93; z-score, replicate A = -0.88; z-score, replicate B = -1.1; z-score, replicate C = -0.81; Call = inactive
